Taken from: PubChem BioAssay AID504761 (Drosophila RNAi Screening Center, 2011)
In all, the deposit lists about 22,000 reagents; shown is a random part of those that have a named target and a result. Over the whole deposit, 116 (0.52%) got an active call. 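Calls depend on retest data that are not deposited; infection was ranked per plate without normalising between plates; the unit of the infection score is not given.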 Raw values are not corrected between plates. Names joined by + are all predicted targets of the reagent. Reagent sequences are not shown. Not given: the amount of reagent, the time to read-out.

- Purpose: 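Insect host genes that dengue virus relies on to spread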 (primary screen)
- Cell system: D.Mel-2 cells from Drosophila
- Reagent: long dsRNA against Drosophila genes
- Challenge: infection with dengue virus type 2; dose and infection time not stated
- Read-out: 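Cells stained for dengue envelope protein and imaged; percent of infected cells per well on duplicate plates, ranked by infection, with stained nuclei counted for cell number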
- Direction: infection score: higher = more virus-infected cells; cell count: higher = more cells in the well
- Hit rule: 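Very low infection ranking in both replicate wells (chance probability at most 0.065), then a retest showing infection dropped 1.5-fold or more at p below 0.05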
- Meaning of the calls: active = confirmed: knock-down lowers infection; inactive = not picked or not confirmed

no.	gene knocked down	DRSC id	infection score, replicate 1	infection score, replicate 2	cell count, replicate 1	cell count, replicate 2	Call
1	byn (brachyenteron)	DRSC11332	2.95	2.54	6208	6422	inactive
2	byn (brachyenteron)	DRSC29142	11.2	11.8	3162	3361	inactive
3	put (punt)	DRSC17039	16	25.5	4942	5820	inactive
4	CG33229	DRSC07863	0.47	1.06	5912	5953	inactive
5	CG33229	DRSC24581	5.58	11.8	6403	5555	inactive
6	ImpL2 (Ecdysone-inducible gene L2)	DRSC08666	7.44	1.86	6302	6543	inactive
7	ImpL2 (Ecdysone-inducible gene L2)	DRSC28691	6.92	7.18	5850	5585	inactive
8	Ssdp (Sequence-specific single-stranded DNA-binding protein)	DRSC16211	0.48	0.94	6070	5873	inactive
9	Ssdp (Sequence-specific single-stranded DNA-binding protein)	DRSC27526	3.3	3.21	6099	6504	inactive
10	CG5080	DRSC00677	2.4	0.65	6345	6661	inactive
11	CG31533	DRSC13018	5.37	9.87	5732	5604	inactive
12	CG31465	DRSC16090	1.85	4.26	6116	6486	inactive
13	CG31465	DRSC26353	8.2	5.79	5232	6634	inactive
14	ebd2 (earthbound 2)	DRSC11682	25.6	13.9	6442	6282	inactive
15	ebd2 (earthbound 2)	DRSC28502	4.4	10.9	704	1480	inactive
16	CG15905	DRSC06591	1.48	1.75	6363	6412	inactive
17	cN-IIIB (cytosolic 5'-nucleotidase IIIB)	DRSC04359	17.9	28.9	6215	5753	inactive
18	CG17002	DRSC04978	15.4	16.9	6813	1074	inactive
19	CG17002	DRSC27573	32.4	15.4	5744	5642	inactive
20	CG12860	DRSC06200	9.72	16.7	6841	5658	inactive
21	CG12860	DRSC26264	8.15	2.38	6310	6222	inactive
22	CG30031 + deltaTry + CG30025 + 1 more	DRSC21262	1.79	2.85	6184	5852	inactive
23	Ir67a (Ionotropic receptor 67a)	DRSC09897	2.73	2.57	6230	6694	inactive
24	CG15800	DRSC04271	2.4	1.12	6362	6547	inactive
25	CG30053	DRSC07260	6.64	6.64	6519	6382	inactive
26	Nep5 (Neprilysin 5)	DRSC16004	2.35	6.18	6694	7037	inactive
27	Lcp2 (Larval cuticle protein 2)	DRSC07456	6.62	4.9	6691	6994	inactive
28	Fs (Follistatin)	DRSC06258	5.65	2.89	6023	6473	inactive
29	Fs (Follistatin)	DRSC06259	6.86	9.3	6287	6460	inactive
30	Fs (Follistatin)	DRSC23507	1.11	1.13	6204	5843	inactive
31	CG32050 (retired record)	DRSC10173	0.4	1.28	6564	6620	inactive
32	CG32050 (retired record)	DRSC25184	5.41	11.6	6768	6552	inactive
33	CG32536 + CG32537	DRSC20074	1.85	1.25	6112	5434	inactive
34	CG15864	DRSC15122	4.01	5.85	6512	6875	inactive
35	CG15864	DRSC25659	6.89	7.24	6461	6123	inactive
36	Alp11 (Alkaline phosphatase 11)	DRSC20080		25.9	349	6047	inactive
37	CG31686 (retired record)	DRSC00102	5.54	0.17	5997	6329	inactive
38	CG31686 (retired record)	DRSC29852	11.4	11.9	6781	6425	inactive
39	Tsen34 + Trl	DRSC10014	1.92	1.74	6296	6036	inactive
40	ovo	DRSC18050	0.82	1.66	5847	6326	inactive
41	ovo	DRSC25801	1.23	5.27	6360	5917	inactive
42	Atg18b (Autophagy-related 18b)	DRSC03108	5.55	10.2	6382	6159	inactive
43	Atg18b (Autophagy-related 18b)	DRSC28594	14.1	11.8	5263	3134	inactive
44	Nipsnap	DRSC20169	2.08	7.51	6523	6581	inactive
45	Dhx15 (DEAH-box helicase 15)	DRSC06036	10.7	11.2	6094	6797	inactive
46	Dhx15 (DEAH-box helicase 15)	DRSC30094	2.92	9.1	6702	6019	inactive
47	TER94 (Transitional endoplasmic reticulum 94)	DRSC07560	1.84	4.36	653	528	inactive
48	TER94 (Transitional endoplasmic reticulum 94)	DRSC27600	17	6.6	5079	5776	inactive
49	Ntf-2r (Nuclear transport factor-2-related)	DRSC02019	11.6	11.9	3827	4863	inactive
50	CG3857	DRSC18542	9.74	2.24	2660	5926	inactive
51	CG4611	DRSC10434	2.48	1.73	6119	6071	inactive
52	CG4611	DRSC26382	3.42	4.68	5821	5575	inactive
53	CG4270	DRSC00648	5.58	1.47	6419	6109	inactive
54	lqfR (liquid facets-Related)	DRSC14703	1.21	5.7	6436	6530	inactive
55	lqfR (liquid facets-Related)	DRSC14704	9.57	6.14	6278	6110	inactive
56	lqfR (liquid facets-Related)	DRSC25247	8.83	6.6	6492	6378	inactive
57	CG6414	DRSC18401	1.01	6.59	6609	5633	inactive
58	CG15152	DRSC02453	12.3		2965	532	inactive

Targets listed so far whose target name begins with B or b (2):
gene knocked down	DRSC id	infection score, replicate 1	infection score, replicate 2	cell count, replicate 1	cell count, replicate 2	Call
byn (brachyenteron)	DRSC11332	2.95	2.54	6208	6422	inactive
byn (brachyenteron)	DRSC29142	11.2	11.8	3162	3361	inactive
